Values joined by “and” are separate entries in the source; they are usually repeats but may differ in a detail not shown here. Equal values may be shown once.
test system: MRC-5 normal human lung fibroblasts; test: MTT cytotoxicity assay; format: cell-based; details: IC50 against MRC-5 cells divided by MIC against E. coli
Method: The IC50 values of the tested peptidomimetics were determined from a dose-response curve. […] The therapeutic indices for each tested peptidomimetic against Gram-positive S. aureus and Gram-negative E. coli were calculated by dividing the IC50 value against human cells by the corresponding MIC value (Table 2).
The toxicity of the peptidomimetics against normal human lung fibroblasts MRC-5 cells was measured, using an MTT (3-(4,5-dimethylthiazol-2-yl)-2,5-diphenyltetrazolium bromide) (Sigma Aldrich, St. Louis, MO, USA) colorimetric assay. The cells were cultured in minimal essential medium (MEM, Invitrogen) containing 10% foetal bovine serum (FBS). The cells were maintained at 37 °C in 5% CO2 as an adherent monolayer and was passaged upon reaching confluence by standard cell culture techniques. MRC-5 cells were seeded at 5000 cells/well in 96-well plates to ensure full confluence (quiescence) and left overnight to adhere to the plate wells. The adherent cells were treated with 1–500 μM of compounds by dissolving in DMSO and serially diluting with media. TY-01 was used as the positive control. The final concentration of DMSO was 0.5% (v/v). After the 72 h drug incubation, […] stock MTT solution (5 mg/mL) was added, and the cells were incubated for another 3.5–4 h. The MTT solution containing media was carefully aspirated without displacing the purple crystals from the bottom, and […] acid-isopropanol was added to all wells and mixed slowly by shaking with an orbital shaker to dissolve the dark blue crystals. […] The determination of IC50 values was performed using GraphPad Prism 7 (GraphPad, San Diego, CA, USA). Each experiment was performed in triplicate and was repeated in three independent experiments.

Question: With `CCCCCCCCCCCCS(=O)(=O)Nc1ccc(Br)cc1C(=O)C(=O)NCCC[N+](C)(C)C.[I-]` [Compound 17b, 3-(2-(5-Bromo-2-(dodecylsulfonamido)phenyl)-2-oxoacetamido)-N,N,N-trimethylpropan-1-aminium iodide] as the compound, how does the “Therapeutic Index E. coli” value read?
Answer: Its value is 0.57.

same assay, conditions: IC50 against MRC-5 cells divided by MIC against S. aureus

Question: For `CCCCCCCCCCCCS(=O)(=O)Nc1ccc(Br)cc1C(=O)C(=O)NCCC[N+](C)(C)C.[I-]` [Compound 17b, 3-(2-(5-Bromo-2-(dodecylsulfonamido)phenyl)-2-oxoacetamido)-N,N,N-trimethylpropan-1-aminium iodide], which “Therapeutic Index S. aureus” value is on record?
Answer: The value was 2.29–7.18 and 2.29.

Question: For `CCCCCCCCS(=O)(=O)Nc1ccc(-c2cccc(-c3ccccc3)c2)cc1C(=O)C(=O)NCCCN(C)C.Cl` [Compound 22, N,N-Dimethyl-3-(2-(4-(octylsulfonamido)-[1,1′:3′,1″-terphenyl]-3-yl)-2-oxoacetamido)propan-1-aminium chloride], which “Therapeutic Index S. aureus” value is on record?
Answer: The value was 0.22.

Question: `CCCCCCCCS(=O)(=O)Nc1ccc(-c2cccc(-c3ccccc3)c2)cc1C(=O)C(=O)NCCC[N+](C)(C)C.[I-]` [Compound 23, N,N,N-Trimethyl-3-(2-(4-(octylsulfonamido)-[1,1′:3′,1″-terphenyl]-3-yl)-2-oxoacetamido)propan-1-aminium iodide] was tested. Which “Therapeutic Index S. aureus” value did it give?
Answer: The value was 1.93.

Question: With `CCCCCCCCCCCCS(=O)(=O)Nc1ccc(Br)cc1C(=O)C(=O)NCCCNC(=N)N.Cl` [Compound 34b, 2-(5-Bromo-2-(dodecylsulfonamido)phenyl)-N-(3-guanidinopropyl)-2-oxoacetamide hydrochloride] as the compound, how does the “Therapeutic Index S. aureus” value read?
Answer: Its value is 1.05–3.40 and 1.32.

Question: `CCCCCCCCS(=O)(=O)Nc1ccc(-c2ccc(-c3ccccc3)cc2)cc1C(=O)C(=O)NCCCN(C)C` [Compound 10d, N-(3-(Dimethylamino)propyl)-2-(4-(octylsulfonamido)-[1,1′:4′,1″-terphenyl]-3-yl)-2-oxoacetamide] was tested. Which “Therapeutic Index S. aureus” value did it give?
Answer: The value was 0.44.

Question: With `CCCCCCCCS(=O)(=O)Nc1ccc(-c2ccc(-c3ccccc3)cc2)cc1C(=O)C(=O)NCCCNC(=N)N.Cl` [Compound 33d, N-(3-Guanidinopropyl)-2-(4-(octylsulfonamido)-[1,1′:4′,1″-terphenyl]-3-yl)-2-oxoacetamide hydrochloride] as the compound, how does the “Therapeutic Index S. aureus” value read?
Answer: Its value is 1.05–3.40 and 1.05.

Question: How did the “Therapeutic Index S. aureus” value turn out when `CCCCCCCCS(=O)(=O)Nc1ccc(-c2ccc(-c3ccccc3)cc2)cc1C(=O)C(=O)NCCCN(C)C.Cl` [Compound 13d, N,N-Dimethyl-3-(2-(4-(octylsulfonamido)-[1,1′:4′,1″-terphenyl]-3-yl)-2-oxoacetamido)propan-1-aminium chloride] was run?
Answer: Its value is 0.24.

Source: publication PMC8303886, “Polyphenylglyoxamide-Based Amphiphilic Small Molecular Peptidomimetics as Antibacterial Agents with Anti-Biofilm Activity” (International Journal of Molecular Sciences, 2021)
